{"source": "patent US20190327961A1", "about": "“STABLE SOLID COMPOSITION BASED ON AN AROMATIC COMPOUND AND USES THEREOF” (priority 2016, published 2019)", "test_system": "stem rot of cherry tomatoes", "test": "Washing of cherry tomatoes, damaged at the stem: stem rot", "format": "in vivo", "conditions": "27° C."}
{"substance": "chlorine", "values": [{"measurement": "Percentage of Cherry Tomatoes that Have Stem Rot", "setting": "1 d", "value": 6, "unit": "%"}, {"measurement": "Percentage of Cherry Tomatoes that Have Stem Rot", "setting": "2 d", "value": 15, "unit": "%"}, {"measurement": "Percentage of Cherry Tomatoes that Have Stem Rot", "setting": "3 d", "value": 22, "unit": "%"}, {"measurement": "Percentage of Cherry Tomatoes that Have Stem Rot", "setting": "4 d", "value": 35, "unit": "%"}, {"measurement": "Percentage of Cherry Tomatoes that Have Stem Rot", "setting": "5 d", "value": 47, "unit": "%"}, {"measurement": "Percentage of Cherry Tomatoes that Have Stem Rot", "setting": "6 d", "value": 60, "unit": "%"}]}
